Measured values taken from paper PMC6889146, “Structure of the African swine fever virus major capsid protein p72” (2019).

Target: T1, African swine fever virus major capsid protein p72 (African swine fever virus), P22776
T1 chain: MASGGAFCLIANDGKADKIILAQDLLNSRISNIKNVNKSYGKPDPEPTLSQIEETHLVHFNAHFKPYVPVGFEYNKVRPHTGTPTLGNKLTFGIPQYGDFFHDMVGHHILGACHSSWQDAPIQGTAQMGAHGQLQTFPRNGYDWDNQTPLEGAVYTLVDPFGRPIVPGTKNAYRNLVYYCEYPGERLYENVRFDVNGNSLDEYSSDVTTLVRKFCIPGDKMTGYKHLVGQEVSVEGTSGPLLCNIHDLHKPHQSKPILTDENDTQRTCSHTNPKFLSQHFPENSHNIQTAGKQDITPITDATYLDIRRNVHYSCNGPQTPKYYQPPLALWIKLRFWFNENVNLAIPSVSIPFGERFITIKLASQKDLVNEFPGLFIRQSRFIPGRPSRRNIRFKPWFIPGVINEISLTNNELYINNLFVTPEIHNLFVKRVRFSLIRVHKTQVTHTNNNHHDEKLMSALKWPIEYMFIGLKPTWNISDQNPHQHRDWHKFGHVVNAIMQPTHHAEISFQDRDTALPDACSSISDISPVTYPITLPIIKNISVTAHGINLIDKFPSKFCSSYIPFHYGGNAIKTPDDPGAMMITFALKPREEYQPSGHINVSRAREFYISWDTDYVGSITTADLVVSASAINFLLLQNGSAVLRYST
Assay: cryo-EM structure
Details: remark: other sources report otherwise

B1: African swine fever virus major capsid protein p72, P22776 1-646 (natural protein)
chain: T1 chain
Question: With B1 as the binder, how does the stoichiometry N read?
Answer: 3
